From publication PMC10636607 (Cell Reports, 2023) come the findings set out here.

In the experiment the target is biotinylated influenza hemagglutinin (HA) from H1N1 A/California/07/2009 (Influenza A virus A/California/07/2009 …, UniProt C3W5X2, strain, biotinylated). The experiment in a line: BLI. Conditions: both partners purified.

B1: 5J8 Fab VL D50Y (Fab, V domains shown)
VH: EVQLVESGPGLVKPSDILSLTCAVSGYSISSNYYWGWIRQPPGKGLEWIGSIYHSGSTYYKPSLESRLGISVDTSKNQFSLKLSFVSAADTAVYYCARHVRSGYPDTAYYFDKWGQGTLVTVSS
VL: SYVLTQPPSVSVAPGETARISCGGNNIGTKVLHWYQQTPGQAPVLVVYYDSDRPSGIPERFSGSNSGNTATLTISRVEVGDEADYYCQVWDISTDQAVFGGGTKLTVL
In the case of B1, the binding result was “no binding (tested: 33 nM, 100 nM, and 300 nM)”.
